Anti-infective test results gathered from many reports (values: NIAID ChemDB through PubChem).

Common to all: growth or infection tests; agent: Candida albicans; read-out: MFC

An empty or dashed field is not shown.

SMILES,strain,value
N/C(=N/N=C1CCCC1)SCc1ccccc1,,>200 µg/mL
CCCCCCCCCSc1cc(C(N)=S)ccn1,3a,200 µg/mL
OC(Cn1cncn1)(Cn1cncn1)c1ccc(F)cc1F,1866,>100 µg/mL
CCC(C)CC(C)CCCCCCCCC(=O)NC1C[C@H](O)[C@@H](O)NC(=O)[C@@H]2C[C@@H](O)CN2C(=O)[C@H]([C@H](O)CC(N)=O)NC(=O)[C@H](C(O)[C@H](O)c2ccc(O)cc2)NC(=O)[C@@H]2C[C@@H](O)CN2C(=O)[C@H]([C@@H](C)O)NC1=O,MY1750,4 µg/mL
CCCn1nc(-c2cc(C)on2)c(N=O)c1C,,22 µM
N=C(N)Sc1c2ccccc2nc2cccc([N+](=O)[O-])c12,CNCM 1180-79,>500 µg/mL
Cc1ccccc1CN(Cc1ccc(-c2ccccc2)cc1)n1ccnc1,,200 µM
CC1(C)CC[C@]2(C(=O)O)CC[C@]3(C)C(=CC[C@@H]4[C@@]5(C)CC[C@H](OC6O[C@H](CO)[C@@H](O)[C@H](O)[C@H]6O)[C@@](C)(CO)[C@@H]5CC[C@]43C)[C@@H]2C1,Y0109,>100 µg/mL
c1ccc(-c2csc(NN=C3CCCCCC3)n2)cc1,,12.5 µg/mL
COC1CC2CCC(C)C(O)(O2)C(=O)C(=O)N2CCCCC2C(=O)OC(C(C)CC2CCC(O)C(OC)C2)CC(=O)C(C)/C=C(\C)[C@@](O)(c2ccc(C)s2)C(OC)C(=O)C(C)CC(C)/C=C/C=C/C=C/1C,TOR1-1/TOR1,>100 µg/mL
Clc1ccccc1CC(Cc1ccc(-c2ccccc2)cc1)n1ccnc1,,19 µM
CCC(C)CC(C)CCCCCCCCC(=O)N[C@H]1C[C@H](O)[C@@H](O)NC(=O)[C@@H]2[C@@H](O)[C@@H](O)CN2C(=O)[C@H]([C@H](O)CC(N)=O)NC(=O)[C@H](C(O)[C@H](O)c2ccc(O)cc2)NC(=O)[C@@H]2C[C@@H](O)CN2C(=O)[C@H]([C@@H](C)O)NC1=O,MY1750,1 µg/mL
Cc1ccccc1CC(Cc1ccc(-c2ccccc2)cc1)n1ccnc1,,>100 µM
CC(C)N=C(N)c1ccc2nc(-c3ccc4c(c3)Cc3cc(-c5nc6ccc(C(N)=NC(C)C)cc6[nH]5)ccc3-4)[nH]c2c1,Isolate 2370 fluconazole-resistant,1.56 µg/mL
CCN(CC)CCn1c2ccccc2c(=O)c2c([N+](=O)[O-])cccc21,CNCM 1180-79,>1000 µg/mL
COC1CC2CCC(C)C(O)(O2)C(O)C(O)N2CCCCC2C(=O)OC(C(C)CC2CCC(O)C(OC)C2)CC(=O)C(C)/C=C(\C)C(O)C(OC)C(=O)C(C)CC(C)/C=C/C=C/C=C/1C,WILD TYPE,12.5 µg/mL
CC1(C)CC[C@]2(C(=O)O)CC[C@]3(C)C(=CC[C@@H]4[C@@]5(C)CC[C@H](OC6O[C@H](CO)[C@@H](O)[C@H](O)[C@H]6OC6O[C@H](CO)[C@@H](O)[C@H](O)[C@H]6O)C(C)(C)[C@@H]5CC[C@]43C)[C@@H]2C1,Clinical isolates,>100 µg/mL
Fc1ccc(CC(Cc2ccc(-c3ccccc3)cc2)n2ccnc2)cc1,,19 µM
CCCCCCSc1cc(C(N)=S)ccn1,3a,50 µg/mL
c1ccc(-c2csc(NN=C3CCCC3)n2)cc1,,3.12 µg/mL
c1ccc(-c2ccc(C(c3ccccc3)n3ccnc3)cc2)cc1,ATCC 10231,20 µg/mL
COC(=O)[C@H]1[C@@H]2C[C@@H](O[C@@H]3O[C@H](C)[C@@H](O)[C@H](N)[C@@H]3O)/C=C/C=C/C=C/C=C/C=C/C=C/C=C/[C@H](C)[C@@H](O)[C@H](C)[C@H](C)OC(=O)C[C@H](O)C[C@H](O)[C@@H](O)CC[C@H](O)C[C@H](O)C[C@](O)(C[C@@H]1O)O2,,3.1 µM
C[C@@H]1O[C@@H](O[C@H]2[C@H](O[C@H]3CC[C@]4(C)[C@H]5CC=C6[C@@H]7CC(C)(C)CC[C@]7(C(=O)O)CC[C@@]6(C)[C@]5(C)CC[C@H]4C3(C)C)OC[C@H](O)[C@@H]2O)[C@H](O)[C@H](O)[C@H]1O,Y0109,>100 µg/mL
Cc1cc(-c2n[nH]c(C)c2N=O)no1,,>200 µM
NC(=S)c1ccnc(SC2CCCCC2)c1,3a,100 µg/mL
CCn1nc(C)c([N+](=O)[O-])c1-c1cc(C)on1,,>200 µM
C[C@H]1[C@H](O)[C@@H](C)/C=C/C=C/C=C/C=C/C=C/C=C/C=C/[C@H](O[C@@H]2O[C@H](C)[C@@H](O)[C@H](N)[C@@H]2O)C[C@@H]2O[C@](O)(C[C@@H](O)C[C@@H](O)CC[C@H](O)[C@@H](O)C[C@@H](O)CC(=O)O[C@H]1C)C[C@H](O)[C@H]2C(=O)O,ATCC 10231,10 µg/mL
NCCc1ccc([N+](=O)[O-])c2c(=O)c3ccccc3[nH]c12,CNCM 1180-79,>500 µg/mL
Cc1ccc(CN(Cc2ccc(-c3ccccc3)cc2)n2ccnc2)cc1,,200 µM
CCCCCCCCCCCCCSc1cc(C(N)=S)ccn1,3a,100 µg/mL
CC1(C)CC[C@]2(C(=O)O)CC[C@]3(C)C(=CC[C@@H]4[C@@]5(C)CC[C@H](OC6O[C@H](CO)[C@@H](O)[C@H](O)[C@H]6OC6O[C@H](CO)[C@@H](O)[C@H](O)[C@H]6O)[C@@](C)(CO)[C@@H]5CC[C@]43C)[C@@H]2C1,Clinical isolates,>100 µg/mL
Nc1[nH]c(=O)ncc1F,ATCC 10231,40 µg/mL
COc1ccccc1CN(Cc1ccc(-c2ccccc2)cc1)n1ccnc1,,33 µM
CCN(CC)CCSc1c2ccccc2nc2cccc([N+](=O)[O-])c12,CNCM 1180-79,>500 µg/mL
CCC(C)CC(C)CCCCCCCCC(=O)NC1CCCNC(=O)[C@@H]2[C@@H](O)[C@@H](C)CN2C(=O)[C@H]([C@H](O)CC(N)=O)NC(=O)[C@H](CCc2ccc(O)cc2)NC(=O)[C@@H]2C[C@@H](O)CN2C(=O)[C@H]([C@@H](C)O)NC1=O,MY1208,0.5 µg/mL
Fc1ccccc1CN(Cc1ccc(-c2ccccc2)cc1)n1ccnc1,,200 µM

The last 2 rows once more:

SMILES	strain	value
CCC(C)CC(C)CCCCCCCCC(=O)NC1CCCNC(=O)[C@@H]2[C@@H](O)[C@@H](C)CN2C(=O)[C@H]([C@H](O)CC(N)=O)NC(=O)[C@H](CCc2ccc(O)cc2)NC(=O)[C@@H]2C[C@@H](O)CN2C(=O)[C@H]([C@@H](C)O)NC1=O	MY1208	0.5 µg/mL
Fc1ccccc1CN(Cc1ccc(-c2ccccc2)cc1)n1ccnc1		200 µM

Rows are shuffled and stem from different studies.